# Data: patent publication US20230380451A1, “MEANS AND METHODS TO DETOXIFY MYCOTOXINS” (priority 2020, published 2023)
# System: primary epithelial cells derived from rainbow trout
# Assay: CellTox Green Cytotoxicity Assay
structure (smiles),measurement,value
"CC1=C[C@H]2O[C@@H]3[C@H](O)C[C@](C)([C@@]2(CO)[C@H](O)C1=O)[C@]31CO1 [DON, (3α,7α)-3,7,15-trihydroxy-12,13-epoxytrichothec-9-en-8-one]",CC50,< 1 µM
